Compound potency records, mixed from different reports. Data source: NIAID ChemDB in PubChem.

Common to all: whole-cell or culture tests; species: Mycobacterium tuberculosis

MIC50, MIC90 and the like: level of inhibition, or share of isolates inhibited. MIC bound: limit read from a one-dose screen. Rows are shuffled and stem from different studies. Fold resistance has wild type as its base. ECn is the concentration giving n% inhibition of infection, replication or growth. Percent inhibition refers to the dose given; in toxicity tests it is the harm to the cells. Blank or dashed fields: not listed here.

compound,strain or isolate,conditions,cells,endpoint,changes,method,tested at,value
COc1cccc(/C=C/C(=O)c2ccc(F)cc2)c1F,H37Rv,21 d,,MIC,,resazurin,,32 µg/mL
NNC(=O)c1ccncc1,MC8,,,MIC,,,,<0.2 µg/mL
O=C(/C=C/c1ccc(F)cc1Cl)c1ccccc1,H37Rv,14 d,,MIC,,MTT,,32 µg/mL
O=C1c2cc(F)ccc2-n2c1nc1c(OCc3ccccc3)cccc1c2=O,H37Rv,,,MIC,,,,4 µg/mL
O=C(/C=C/c1ccc(F)cc1)c1ccc(O)cc1,H37Rv,14 d,,MIC,,resazurin,,32 µg/mL
O=C1c2cc(F)ccc2-n2c1nc1c(F)cccc1c2=O,H37Rv,,,MIC,,,,0.13 µg/mL
CCN(CC)CCNc1ccc(CO)c2oc3cc(Cl)ccc3c(=O)c12,H37Rv,,,MIC,,BACTEC,,≥12.5 µg/mL
CCCCCOc1ccccc1NC(=O)OCCN(C)C,My 331/88,,,MIC,,,,125 µM
CC1=Nc2cc3ccccc3cc2N(C)/C1=C/C1=C(Cl)C(=O)c2ccccc2C1=O,H37Rv,,,MIC bound,,BACTEC,,>12.5 µg/mL
CCOC(=O)c1ccc2c(c1)nc(-c1ccc(O)cc1)n2CCN1CCCOC1,H37Rv,,,EC50,,resazurin / fluorescence,,>100 µM
COc1cccc(C2SCC(=O)N2C(=O)NCCCN2c3ccccc3Sc3ccccc32)c1,H37Rv,,,inhibition,,agar,50 µg/mL,53%
CCc1nc2ccc(C)cc2n1CCCNc1ccc(C)cc1C,H37Rv,,,fold resistance,QcrB M342T,turbidity / fluorescence,,6.2
Clc1ccc2c(c1)NC(c1ccccn1)S2,H37Rv,,,MIC,,,,0.8 µg/mL
O=C(/C=C/c1ccccc1)c1ccc(O)cc1,H37Rv,14 d,,MIC,,MTT,,32 µg/mL
CC(C)(C)N1CCOCN2CCCCC2CCN(C(C)(C)C)CCOCN2CCCCC2CC1,H37Rv,,,inhibition,,BACTEC,12.5 µg/mL,21%
CCOC(=O)c1ccc2c(c1)nc(-c1ccc(OC)cc1)n2CCN1CCCC1=O,H37Rv,,,EC90,,resazurin / fluorescence,,>100 µM
Cc1ccc(-c2cs/c(=N\NC(=O)COc3cnccn3)n2C(C)C)cc1,H37Rv,,,MIC,,,,13 µg/mL
CO[C@H]1/C=C/O[C@@]2(C)Oc3c(C)c(O)c4c(O)c(c(/C=N/N5CCN(C)CC5)c(O)c4c3C2=O)NC(=O)/C(C)=C\C=C\[C@H](C)[C@H](O)[C@@H](C)[C@@H](O)[C@@H](C)[C@H](OC(C)=O)[C@@H]1C,XZ06008,,,MIC,Extensively drug-resistant,resazurin,,>256 µg/mL
C[C@H]1COc2c(N3CCN(C)CC3)c(F)cc3c(=O)c(C(=O)O)cn1c23,Clinical isolate BRF 27,,,MIC,,resazurin,,0.5 µg/mL
CCc1nc2ccccc2n1CCCSc1ccc(C)cc1,H37Rv,,,MIC99,,turbidity / fluorescence,,4.5 µM
COc1ccc(C(=O)/C=C/c2ccccc2Cl)cc1,H37Rv,21 d,,MIC,,MTT,,64 µg/mL
CCOC(=O)c1ccc2nc(-c3ccc(O)c(OC)c3)[nH]c2c1,H37Rv,,,MIC,,resazurin / fluorescence,,>100 µM
CO[C@H]1/C=C/O[C@@]2(C)Oc3c(C)c(O)c4c(O)c(c(/C=N/N5CCN(C)CC5)c(O)c4c3C2=O)NC(=O)/C(C)=C\C=C\[C@H](C)[C@H](O)[C@@H](C)[C@@H](O)[C@@H](C)[C@H](OC(C)=O)[C@@H]1C,M22,,,MIC,,resazurin,,>2 µg/mL
CC[C@@]1(OC(=O)CCC(=O)O)C(=O)OCc2c1cc1n(c2=O)Cc2cc3ccccc3nc2-1,H37Rv,,,inhibition,,resazurin,6.25 µg/mL,15%
CCOC(=O)c1ccc2c(c1)nc(-c1ccc(O)cc1O)n2CCN1CCCC1=O,H37Rv,,,EC90,,resazurin / fluorescence,,>100 µM
CCOC(=O)C(CC(C)C)NC(=O)c1c2nc3c(C(=O)NC(CC(C)C)C(=O)OCC)cc(Br)c(C)c3oc-2c(C)c(=O)c1N,H37Rv,,,MIC bound,,BACTEC,,>12.5 µg/mL
CCOC(=O)c1ccc2c(c1)nc(-c1ccc(O)cc1)n2CCN1CCCC1=O,H37Rv,,,EC90,,resazurin / fluorescence,,>100 µM
Cc1cccc(/C=C2/SC(c3cccc(C)c3)N(C(=O)NCCCN3c4ccccc4Sc4ccccc43)C2=O)c1,H37Rv,,,inhibition,,agar,50 µg/mL,49%
CO[C@H]1/C=C/O[C@@]2(C)Oc3c(C)c(O)c4c(c3C2=O)C2=NC(C)(C)N(c3ccccc3)C2=C(NC(=O)/C(C)=C\C=C\[C@H](C)[C@H](O)[C@@H](C)[C@@H](O)[C@@H](C)[C@H](OC(C)=O)[C@@H]1C)C4=O,H37Rv,,VERO,MIC,,,,0.0125 µg/mL
NNC(=O)c1ccncc1,PR1233,,,MIC,,,,>20 µg/mL
O=C(COc1cnccn1)N/N=c1\scc(-c2ccc(F)cc2)n1-c1ccc(Cl)cc1,H37Rv,,,MIC,,,,17 µg/mL
c1cc2c(s1)CCOC21CCN(Cc2ccc3c(c2)OCCO3)CC1,H37Rv,,,fold resistance,MmpL3: Phe644Cys,fluorescence,,8.3
O=C1c2c(cccc2C(F)(F)F)-n2c1nc1ccncc1c2=O,H37Rv,,,MIC,,,,0.13 µg/mL
Clc1cccc2c1NC(c1cccnc1)S2,H37Rv,,,MIC,,,,1 µg/mL
CCCCCCCCc1ccc2c(c1)C(=O)c1nc3ccncc3c(=O)n1-2,TN772RFLF:AB (MDR),,,MIC,,,,≤0.015 µg/mL
CCCCCCCCCOc1ccccc1NC(=O)OCCN(C)C,My 331/88,,,MIC,,,,8 µM
O=C1c2ccc(N3CCNCC3)cc2-n2c1nc1ccccc1c2=O,H37Rv,,,MIC,,,,4 µg/mL
N#C/C(=C\c1ccc([N+](=O)[O-])o1)c1ccccc1,H37Rv,,,MIC bound,,BACTEC,,>12.5 µg/mL
CO[C@H]1/C=C/O[C@@]2(C)Oc3c(C)c(O)c4c(=O)c(c5oc6cc(N7CCN(CC(C)C)CC7)cc(=O)c6nc5c4c3=C2O)NC(=O)/C(C)=C\C=C\[C@H](C)[C@H](O)[C@@H](C)[C@@H](O)[C@@H](C)[C@H](OC(C)=O)[C@@H]1C,H37Rv,,,MBC,,,,0.007 µg/mL
Cc1ccc(C2SCC(=O)N2C(=O)NCCCN2c3ccccc3Sc3ccccc32)cc1,H37Rv,,,inhibition,,agar,25 µg/mL,29%
NNP(=O)(NN)C(Cl)(Cl)Cl,H37Rv,,,MIC bound,,BACTEC,,>12.5 µg/mL
CCc1nc2ccccc2n1CCCCNc1ccc(C)cc1,H37Rv,,,MIC99,,turbidity / fluorescence,,0.5 µM
COc1cc2oc3cc(O)c(CCC(C)C)c(O)c3c(=O)c2c(CCC(C)C)c1O,H37Ra,,,MIC,,resazurin,,3.12 µg/mL
Cl.NC1CON(C(c2ccccc2)(c2ccccc2)c2ccccc2)C1=O,H37Rv,,,MIC bound,,BACTEC,,>12.5 µg/mL
O=C1c2cc([N+](=O)[O-])ccc2-n2c1nc1ncccc1c2=O,H37Rv,,,MIC,,,,0.25 µg/mL
Cc1ccc(/C=N/C(=O)NCCCN2c3ccccc3Sc3ccccc32)cc1,H37Rv,,,inhibition,,agar,50 µg/mL,38%
Cc1cc(-c2cc3c(cc2F)c(=O)c(C(=O)O)cn3C2CC2)cc(C)n1,H37Rv,,,MIC,,,,1 µg/mL
COc1ccc(C(=O)/C=C/c2ccc(F)cc2Cl)cc1,H37Rv,14 d,,MIC,,MTT,,64 µg/mL
O=C(COc1cnccn1)N/N=c1\scc(-c2ccc(O)cc2)n1-c1ccc(Cl)cc1[N+](=O)[O-],H37Rv,,,MIC,,,,4 µg/mL
CC[C@H]1OC(=O)[C@H](C)[C@@H](O[C@H]2C[C@@](C)(OC)[C@@H](O)[C@H](C)O2)[C@H](C)[C@@H](O[C@@H]2O[C@H](C)C[C@H](N(C)C)[C@H]2O)[C@](C)(OC)C[C@@H](C)C(=O)[C@H](C)[C@@H](O)[C@]1(C)O,9127,,,MIC,,,,>4 µg/mL
O=C1CSC(c2cccc(Cl)c2)N1C(=O)NCCCN1c2ccccc2Sc2ccccc21,H37Rv,,,inhibition,,agar,25 µg/mL,30%
CC(C)CCc1c(O)cc2oc3cc(O)c(O)c(CCC(C)C)c3c(=O)c2c1O,H37Ra,,,MIC,,resazurin,,6.25 µg/mL
CCOc1ccc(-n2c(-c3ccc(C)cc3)cs/c2=N\NC(=O)COc2cnccn2)cc1,H37Rv,,,MIC,,,,3.1 µg/mL
CCCCCOc1ccccc1NC(=O)OCCN1CCCCCC1,My 331/88,,,MIC,,,,32 µM
CCc1nc2ccccc2n1CCCCOc1ccc(Cl)cc1C,H37Rv,,,MIC90,QcrB M342T,turbidity / fluorescence,,>100 µM
CCOc1cc2oc3cc(O)c(CCC(C)C)c(O)c3c(=O)c2c(CCC(C)C)c1OC,M-3,,,MIC,,resazurin,,1.56 µg/mL
O=C1CSC(c2cccc(Br)c2)N1C(=O)NCCCN1c2ccccc2Sc2ccccc21,H37Rv,,,inhibition,,agar,50 µg/mL,70%
O=c1oc2ccccc2c2c1Sc1ccccc1N2,H37Rv,,,inhibition,,BACTEC,12.5 µg/mL,-6%
Cc1cccc2nc3n(c(=O)c12)-c1ccc(F)cc1C3=O,H37Rv,,,MIC,,,,0.13 µg/mL
Cc1ccc(NN=O)nc1,H37Rv,,,MIC bound,,BACTEC,,>12.5 µg/mL
C=CCOc1cc2oc3cc(O)c(CCC(C)C)c(O)c3c(=O)c2c(CCC(C)C)c1OC,M8,,,MIC,,resazurin,,1.56 µg/mL
CO[C@H]1/C=C/O[C@@]2(C)Oc3c(C)c(O)c4c(=O)c(c5oc6cc(N7CCN(CC(C)C)CC7)cc(=O)c6nc5c4c3=C2O)NC(=O)/C(C)=C\C=C\[C@H](C)[C@H](O)[C@@H](C)[C@@H](O)[C@@H](C)[C@H](OC(C)=O)[C@@H]1C,30 isolates,,,MIC90,,,,2 µg/mL
NCC[C@H](O)C(=O)N[C@@H]1C[C@H](N)[C@@H](O[C@H]2O[C@H](CN)[C@@H](O)[C@H](O)[C@H]2O)[C@H](O)[C@H]1O[C@H]1O[C@H](CO)[C@@H](O)[C@H](N)[C@H]1O,H37Rv,,,EC50,,resazurin / fluorescence,,>100 µM
CCCCCCOc1ccc(NC(=O)OCCN2CCOCC2)cc1,My 331/88,,,MIC,,,,16 µM
Cc1ccc(NCCN2CCOCC2)c2c(=O)c3ccccc3sc12,H37Rv,,,MIC bound,,BACTEC,,>12.5 µg/mL
c1coc(C2Nc3ccccc3S2)c1,H37Rv,,,MIC,,,,3.1 µg/mL
O=C1C=C(Nc2ccccc2C(=O)CC(=O)C(=O)Nc2cccc([N+](=O)[O-])c2)c2ccccc2C1=O,H37Rv,,VERO,MIC,,resazurin,,≤0.1 µg/mL
COc1cc2oc3cc(O)c(CCC(C)C)c(O)c3c(=O)c2c(CCC(C)C)c1OC,M27,,,MIC,,resazurin,,1.56 µg/mL
Cc1ccccc1Nc1nc(NNC(=O)Cc2ccccc2)nc(NNC(=O)c2ccncc2)n1,H37Rv,,,inhibition,,BACTEC,12.5 µg/mL,33%
CCOC(=O)c1ccc2nc(-c3ccc(Br)cc3)[nH]c2c1,H37Rv,,,EC50,,resazurin / fluorescence,,>100 µM
c1ccc2c(c1)NC(c1nc3ccccc3[nH]1)S2,H37Rv,,,MIC,,,,25 µg/mL
O=C1CC(SC(=S)N2CCOCC2)C(=O)N1,H37Rv,,,MIC bound,,BACTEC,,≤128 µg/mL
CCOC(=O)c1ccc2nc(-c3ccccc3)[nH]c2c1,H37Rv,,,MIC,,resazurin / fluorescence,,>100 µM
Nc1nc2c(ncn2[C@H]2C=C[C@@H](CO)C2)c(=O)[nH]1,H37Rv,,,MIC bound,,BACTEC,,>12.5 µg/mL
COc1ccccc1NC(=O)OCCN(C)C,My 331/88,,,MIC,,,,1000 µM
CCOC(=O)C1=C(C)O/C(=C\c2ccc(OC)cc2)C1=O,H37Rv,,,inhibition,,BACTEC,12.5 µg/mL,30%
CCCCCOc1cccc(NC(=O)OCCN2CCOCC2)c1,My 331/88,,,MIC,,,,62.5 µM
N[C@@H]1CONC1=O,H37Rv,,,MIC bound,,BACTEC,,>12.8 µg/mL
COc1ccc(/C=C2/SC(c3ccc(OC)cc3)N(C(=O)NCCCN3c4ccccc4Sc4ccccc43)C2=O)cc1,H37Rv,,,inhibition,,agar,25 µg/mL,28%
COc1cc2c(cc1OC)C1CC(=O)C(CCCCCCC3CN4CCc5cc(OC)c(OC)cc5C4CC3=O)CN1CC2,H37Rv,,,MIC bound,,BACTEC,,≤12.5 µg/mL
CCCCCCOc1ccc(NC(=O)OCC[NH+]2CCCC2)cc1,My 331/88,,,MIC,,,,32 µM
CCOC(=O)NC(Nc1ccc(S(=O)(=O)Nc2ncccn2)cc1)(C(=O)OCC)C(F)(F)F,H37Rv,,,inhibition,,resazurin,6.25 µg/mL,32%
CCCOc1ccc(NC(=O)OCCN(C)C)cc1,My 331/88,,,MIC,,,,500 µM

Repeating the first 9 entries:

compound | strain or isolate | conditions | cells | endpoint | changes | method | tested at | value
COc1cccc(/C=C/C(=O)c2ccc(F)cc2)c1F | H37Rv | 21 d |  | MIC |  | resazurin |  | 32 µg/mL
NNC(=O)c1ccncc1 | MC8 |  |  | MIC |  |  |  | <0.2 µg/mL
O=C(/C=C/c1ccc(F)cc1Cl)c1ccccc1 | H37Rv | 14 d |  | MIC |  | MTT |  | 32 µg/mL
O=C1c2cc(F)ccc2-n2c1nc1c(OCc3ccccc3)cccc1c2=O | H37Rv |  |  | MIC |  |  |  | 4 µg/mL
O=C(/C=C/c1ccc(F)cc1)c1ccc(O)cc1 | H37Rv | 14 d |  | MIC |  | resazurin |  | 32 µg/mL
O=C1c2cc(F)ccc2-n2c1nc1c(F)cccc1c2=O | H37Rv |  |  | MIC |  |  |  | 0.13 µg/mL
CCN(CC)CCNc1ccc(CO)c2oc3cc(Cl)ccc3c(=O)c12 | H37Rv |  |  | MIC |  | BACTEC |  | ≥12.5 µg/mL
CCCCCOc1ccccc1NC(=O)OCCN(C)C | My 331/88 |  |  | MIC |  |  |  | 125 µM
CC1=Nc2cc3ccccc3cc2N(C)/C1=C/C1=C(Cl)C(=O)c2ccccc2C1=O | H37Rv |  |  | MIC bound |  | BACTEC |  | >12.5 µg/mL